Compound potency records, mixed from different reports. Data source: NIAID ChemDB in PubChem.

Shared fields: whole-cell or culture tests; organism: Mycobacterium avium complex

Conditions beyond the fields shown may differ between rows.

compound	method	strain	endpoint	result
CC(C)N=c1cc2n(-c3ccc(Cl)cc3)c3ccccc3nc-2cc1Nc1ccc(Cl)cc1		32 isolates	MIC90	2 µg/mL
NC[C@H]1O[C@H](O[C@H]2[C@H](O)[C@@H](O[C@H]3O[C@H](CO)[C@@H](O)[C@H](N)[C@H]3O)[C@H](N)C[C@@H]2N)[C@H](N)[C@@H](O)[C@@H]1O		TMC 1467	MIC	0.05 µg/mL
CO[C@H]1/C=C/O[C@@]2(C)Oc3c(C)c(O)c4c(O)c(c5c(c4c3C2=O)NC2(CCN(CC(C)C)CC2)N=5)=NC(=O)/C(C)=C\C=C\[C@H](C)[C@H](O)[C@@H](C)[C@@H](O)[C@@H](C)[C@H](OC(C)=O)[C@@H]1C		32 isolates	MIC90	2 µg/mL
CN[C@@H]1[C@H](O[C@H]2[C@H](O[C@H]3[C@H](O)[C@@H](O)[C@H](N=C(N)N)[C@@H](O)[C@@H]3N=C(N)N)O[C@@H](C)[C@]2(O)C=O)O[C@@H](CO)[C@H](O)[C@H]1O		13011 (serotype 16)	MIC	6.25 µg/mL
CN(C)[C@@H]1C(=O)C(C(N)=O)=C(O)[C@@]2(O)C(=O)C3=C(O)c4c(O)cccc4[C@@](C)(O)[C@H]3C[C@@H]12		11 strains	MIC50	>128 µg/mL
CO[C@H]1/C=C/O[C@@]2(C)Oc3c(C)c(O)c4c(O)c(c5c(c4c3C2=O)NC2(CCN(CC(C)C)CC2)N=5)=NC(=O)/C(C)=C\C=C\[C@H](C)[C@H](O)[C@@H](C)[C@@H](O)[C@@H](C)[C@H](OC(C)=O)[C@@H]1C		9838	MBC	16 µg/mL
NCCC(O)C(N)CC(=O)NC1CNC(=O)C(C2CCN=C(N)N2)NC(=O)/C(=C/NC(N)=O)NC(=O)C(CO)NC(=O)C(CO)NC1=O		Isolate 135	MIC	100 µg/mL
CN[C@@H]1[C@H](O)[C@H](NC)[C@H]2O[C@@]3(O)C(=O)C[C@@H](C)O[C@H]3O[C@@H]2[C@H]1O		ATCC 35718	MIC	64 µg/mL
CCN(CC)CCN=c1cc2n(-c3ccc(Cl)cc3)c3ccccc3nc-2cc1Nc1ccc(Cl)cc1			MIC90	0.4 µg/mL
CC[C@H]1OC(=O)[C@H](C)[C@@H](O[C@H]2C[C@@](C)(OC)[C@@H](O)[C@H](C)O2)[C@H](C)[C@@H](O[C@@H]2O[C@H](C)C[C@H](N(C)C)[C@H]2O)[C@](C)(OC)C[C@@H](C)C(=O)[C@H](C)[C@@H](O)[C@]1(C)O		32 isolates	MIC	4 µg/mL
CC[C@H]1OC(=O)[C@H](C)[C@@H](O[C@H]2C[C@@](C)(OC)[C@@H](O)[C@H](C)O2)[C@H](C)[C@@H](O[C@@H]2O[C@H](C)C[C@H](N(C)C)[C@H]2O)[C@](C)(O)C[C@@H](C)CN(C)[C@H](C)[C@@H](O)[C@]1(C)O		15 strains	MIC90	62 µg/mL
C[C@H]1COc2c(N3CCN(C)CC3)c(F)cc3c(=O)c(C(=O)O)cn1c23		12 strains	MIC90	8 µg/mL
C[C@@H](O)[C@H]1C(=O)N2C(C(=O)O)=C(SCCOC(N)=O)S[C@H]12		22 strains	MIC90	16 µg/mL
N[C@@H]1CN(c2c(F)cc3c(=O)c(C(=O)O)cn([C@@H]4C[C@@H]4F)c3c2Cl)CC12CC2			MIC	0.25–8 µg/mL
CO[C@H]1/C=C/O[C@@]2(C)Oc3c(C)c(O)c4c(O)c(c(/C=N/N5CCN(C6CCCC6)CC5)c(O)c4c3C2=O)NC(=O)/C(C)=C\C=C\[C@H](C)[C@H](O)[C@@H](C)[C@@H](O)[C@@H](C)[C@H](OC(C)=O)[C@@H]1C		Serotype 2	MIC	>40 µg/mL
CO[C@H]1/C=C/O[C@@]2(C)Oc3c(C)c(O)c4c(=O)c(c5oc6cc(N7CCCC7)cc(=O)c6nc5c4c3=C2O)NC(=O)/C(C)=C\C=C\[C@H](C)[C@H](O)[C@@H](C)[C@@H](O)[C@@H](C)[C@H](OC(C)=O)[C@@H]1C		31F093T	MIC	0.15 µg/mL
CC(C)N=c1cc2n(-c3ccc(Cl)cc3)c3ccccc3nc-2cc1Nc1ccc(Cl)cc1		536/HIV+	MIC	0.25 µg/mL
CCn1cc(C(=O)O)c(=O)c2cc(F)c(N3CCNCC3)nc21		2 strains	MIC	>5 µg/mL
CO[C@H]1/C=C/O[C@@]2(C)Oc3c(C)c(O)c4c(O)c(c(/C=N/N5CCN(C)CC5)c(O)c4c3C2=O)NC(=O)/C(C)=C\C=C\[C@H](C)[C@H](O)[C@@H](C)[C@@H](O)[C@@H](C)[C@H](OC(C)=O)[C@@H]1C		CIPT 140310003 (rough)	MIC	0.1 µg/mL
CC[C@@H](CO)NCCN[C@@H](CC)CO		211-5	MIC	3.8 µg/mL
NC[C@H]1O[C@H](O[C@H]2[C@H](O)[C@@H](O[C@H]3O[C@H](CO)[C@@H](O)[C@H](N)[C@H]3O)[C@H](N)C[C@@H]2N)[C@H](O)[C@@H](O)[C@@H]1O			MIC50	3.1 µg/mL
CO[C@H]1/C=C/O[C@@]2(C)Oc3c(C)c(O)c4c(=O)c(c5oc6cc(N7CCOCC7)cc(=O)c6nc5c4c3=C2O)NC(=O)/C(C)=C\C=C\[C@H](C)[C@H](O)[C@@H](C)[C@@H](O)[C@@H](C)[C@H](OC(C)=O)[C@@H]1C		31F093T	MIC	0.3 µg/mL
NNC(=O)c1ccncc1		13011 (serotype 16)	MIC	0.8 µg/mL
CN[C@@H]1[C@H](O[C@H]2[C@H](O[C@H]3[C@H](O)[C@@H](O)[C@H](N=C(N)N)[C@@H](O)[C@@H]3N=C(N)N)O[C@@H](C)[C@]2(O)C=O)O[C@@H](CO)[C@H](O)[C@H]1O		TMC 1411	MIC	0.39 µg/mL
CO[C@H]1/C=C/O[C@@]2(C)Oc3c(C)c(O)c4c(=O)c(c5oc6cc(N7CCN(CC(C)C)CC7)cc(=O)c6nc5c4c3=C2O)NC(=O)/C(C)=C\C=C\[C@H](C)[C@H](O)[C@@H](C)[C@@H](O)[C@@H](C)[C@H](OC(C)=O)[C@@H]1C		N-966	MIC	0.12 µg/mL
NC[C@H]1O[C@H](O[C@H]2[C@H](O[C@@H]3O[C@H](CO)[C@@H](O)[C@H]3O)[C@@H](O)[C@H](N)C[C@@H]2N)[C@H](N)[C@@H](O)[C@@H]1O		TMC 1411	MIC	0.19 µg/mL
CO[C@H]1/C=C/O[C@@]2(C)Oc3c(C)c(O)c4c(O)c(c(/C=N/N5CCN(C)CC5)c(O)c4c3C2=O)NC(=O)/C(C)=C\C=C\[C@H](C)[C@H](O)[C@@H](C)[C@@H](O)[C@@H](C)[C@H](OC(C)=O)[C@@H]1C			MIC50	0.9 µg/mL
CN(C)c1ccc(O)c2c1C[C@H]1C[C@H]3[C@H](N(C)C)C(=O)C(C(N)=O)=C(O)[C@@]3(O)C(=O)C1=C2O		11 strains	MIC90	>64 µg/mL
O=C(O)c1cn(C2CC2)c2c(Cl)c(N3C[C@@H]4CCCN[C@@H]4C3)c(F)cc2c1=O			MIC90	8 µg/mL
CC[C@@H](CO)NCCN[C@@H](CC)CO		32 isolates	MIC90	8 µg/mL
O=[N+]([O-])[O][Ga]([O][N+](=O)[O-])[O][N+](=O)[O-]		1	EC50	<500 µM
N[C@@H]1CN(c2c(F)cc3c(=O)c(C(=O)O)cn([C@@H]4C[C@@H]4F)c3c2Cl)CC12CC2		N-966	MIC	4 µg/mL
NCC[C@H](O)C(=O)N[C@@H]1C[C@H](N)[C@@H](O[C@H]2O[C@H](CN)[C@@H](O)[C@H](O)[C@H]2O)[C@H](O)[C@H]1O[C@H]1O[C@H](CO)[C@@H](O)[C@H](N)[C@H]1O		559/HIV+	MIC	>1.25 µg/mL
CC[C@H]1OC(=O)[C@H](C)[C@@H](O[C@H]2C[C@@](C)(OC)[C@@H](O)[C@H](C)O2)[C@H](C)[C@@H](O[C@@H]2O[C@H](C)C[C@H](N(C)C)[C@H]2O)[C@](C)(OC)C[C@@H](C)C(=O)[C@H](C)[C@@H](O)[C@]1(C)O		N-444	MIC	8 µg/mL
CO/N=C(\C(=O)N[C@@H]1C(=O)N2C(C(=O)O)=C(COC(C)=O)CS[C@H]12)c1csc(N)n1		35 isolates	MIC	6.25 µg/mL
CC1COc2c(N3CCN(C)CC3)c(F)cc3c(=O)c(C(=O)O)cn1c23		32 isolates	MIC	2 µg/mL
CN[C@@H]1[C@@H](O)[C@@H](O[C@@H]2[C@@H](O)[C@H](O[C@H]3O[C@H](CN)CC[C@H]3N)[C@@H](N)C[C@H]2N)OC[C@]1(C)O		25 isolates	MBC90	>64 µg/mL
Nc1ccn([C@@H]2O[C@H](CO)[C@@H](O)[C@@H]2O)c(=O)n1		32 isolates	MIC90	>128 µg/mL
CCCN1CCN(c2cc(=O)c3nc4c(oc3c2)c2c(=O)c3c(O)c(C)c5c(c34)=C(O)[C@@](C)(O/C=C/[C@H](OC)[C@@H](C)[C@@H](OC(C)=O)[C@H](C)[C@H](O)[C@H](C)[C@@H](O)[C@@H](C)/C=C/C=C(/C)C(=O)N2)O5)CC1		31F093T	MIC	0.035 µg/mL
CC(C)N=c1cc2n(-c3ccccc3)c3ccccc3nc-2cc1Nc1ccc(Cl)cc1			MIC50	0.09 µg/mL
NCC[C@H](O)C(=O)N[C@@H]1C[C@H](N)[C@@H](O[C@H]2O[C@H](CN)[C@@H](O)[C@H](O)[C@H]2O)[C@H](O)[C@H]1O[C@H]1O[C@H](CO)[C@@H](O)[C@H](N)[C@H]1O		TMC 1473	MIC	0.78 µg/mL
NC(=O)c1cnccn1	agar	713 strains	EC50	>25 µg/mL
CO[C@H]1/C=C/O[C@@]2(C)Oc3c(C)c(O)c4c(O)c(c(/C=N/N5CCN(C)CC5)c(O)c4c3C2=O)NC(=O)/C(C)=C\C=C\[C@H](C)[C@H](O)[C@@H](C)[C@@H](O)[C@@H](C)[C@H](OC(C)=O)[C@@H]1C		Strain 1	MIC	0.5 µg/mL
c1ccc(N=Nc2ccccc2)cc1		32 isolates	MIC90	>128 µg/mL
CC[C@@H](CO)NCCN[C@@H](CC)CO			MIC90	3.8 µg/mL
NCC[C@H](O)C(=O)N[C@@H]1C[C@H](N)[C@@H](O[C@H]2O[C@H](CN)[C@@H](O)[C@H](O)[C@H]2O)[C@H](O)[C@H]1O[C@H]1O[C@H](CO)[C@@H](O)[C@H](N)[C@H]1O		Strain 1	MIC	1 µg/mL
NCC[C@H](O)C(=O)N[C@@H]1C[C@H](N)[C@@H](O[C@H]2O[C@H](CN)[C@@H](O)[C@H](O)[C@H]2O)[C@H](O)[C@H]1O[C@H]1O[C@H](CO)[C@@H](O)[C@H](N)[C@H]1O			MIC90	3.55 µg/mL
CC[C@@H](CO)NCCN[C@@H](CC)CO			MIC	>2 µg/mL
COC(C(N)=NC1C(=O)N2C(C(=O)[O-])=C(C[N+]3(C)C=CC=C3)CSC12)c1cnc(N)s1			MIC90	31.1 µg/mL
CC[C@@H](CO)NCCN[C@@H](CC)CO		3010-4	MIC	1.9 µg/mL
CO/N=C(/C(=O)N[C@@H]1C(=O)N2C(C(=O)O)=C(COC(N)=O)CS[C@H]12)c1ccco1			MIC90	47.9 µg/mL
CC[C@H]1OC(=O)[C@H](C)[C@@H](O[C@H]2C[C@@](C)(OC)[C@@H](O)[C@H](C)O2)[C@H](C)[C@@H](O[C@@H]2O[C@H](C)C[C@H](N(C)C)[C@H]2O)[C@](C)(OC)C[C@@H](C)C(=O)[C@H](C)[C@@H](O)[C@]1(C)O		22 strains	MIC90	8 µg/mL
CO[C@H]1/C=C/O[C@@]2(C)Oc3c(C)c(O)c4c(O)c(c(/C=N/N5CCN(C)CC5)c(O)c4c3C2=O)NC(=O)/C(C)=C\C=C\[C@H](C)[C@H](O)[C@@H](C)[C@@H](O)[C@@H](C)[C@H](OC(C)=O)[C@@H]1C		26 isolates (HIV+)	MIC50	0.5 µg/mL
Cc1cc(=O)c(C(=O)NC(C(=O)N[C@@H]2C(=O)N3C(C(=O)O)=C(CSc4nnnn4C)CS[C@H]23)c2ccc(O)cc2)c[nH]1			MIC50	22.7 µg/mL

A second listing of 4 rows from above:

compound,method,strain,endpoint,result
N[C@@H]1CN(c2c(F)cc3c(=O)c(C(=O)O)cn([C@@H]4C[C@@H]4F)c3c2Cl)CC12CC2,,N-966,MIC,4 µg/mL
CC[C@@H](CO)NCCN[C@@H](CC)CO,,,MIC,>2 µg/mL
NC(=O)c1cnccn1,agar,713 strains,EC50,>25 µg/mL
CO[C@H]1/C=C/O[C@@]2(C)Oc3c(C)c(O)c4c(=O)c(c5oc6cc(N7CCOCC7)cc(=O)c6nc5c4c3=C2O)NC(=O)/C(C)=C\C=C\[C@H](C)[C@H](O)[C@@H](C)[C@@H](O)[C@@H](C)[C@H](OC(C)=O)[C@@H]1C,,31F093T,MIC,0.3 µg/mL

ECn: concentration that inhibits the pathogen or its effect by n%. An empty or dashed field is not shown. MIC50, MIC90 and the like: level of inhibition, or share of isolates inhibited. a–b is a range or a potency band.